{"source": "PubChem BioAssay AID504761 – Drosophila RNAi Screening Center, 2011", "screen": "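Genome-wide fly cell screen for genes dengue virus requires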 (primary screen)", "cell system": "D.Mel-2 cells from Drosophila", "reagents": "long dsRNA against Drosophila genes", "conditions": "infection with dengue virus type 2; dose and infection time not stated", "detection": "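Cells stained for dengue envelope protein and imaged; percent of infected cells per well on duplicate plates, ranked by infection, with stained nuclei counted for cell number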", "direction": "infection score: higher = more virus-infected cells", "hit rule": "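Low infection ranks in the two replicates (chance level up to 0.065) followed by a retest with a 1.5-fold or larger significant decrease, p below 0.05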", "meaning of the calls": "active = confirmed: knock-down lowers infection; inactive = not picked or not confirmed", "note": "In all, the deposit lists about 22,000 reagents; shown is an unselected part of those with a known target gene and a result. Of all reagents, 116 (0.52%) got an active call. 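Calls depend on retest data that are not deposited; infection was ranked per plate without normalising between plates; the unit of the infection score is not given.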 Unmarked entries are inactive. Names joined by + are all predicted targets of the reagent. Further read-outs or replicates are left out here. The record does not give: the amount of reagent, the time to read-out."}
{"target gene": "sncRNA:430e + His2A:CG33859 + His2A:CG33817 + 37 more", "dsRNA": "DRSC21264", "infection score, replicate 1": 2.17}
{"target gene": "yin", "dsRNA": "DRSC18854", "infection score, replicate 1": 3.27}
{"target gene": "yin", "dsRNA": "DRSC21889", "infection score, replicate 1": 5.35}
{"target gene": "prt (portabella)", "dsRNA": "DRSC16894", "infection score, replicate 1": 6.63}
{"target gene": "Nt5c (5' nucleotidase C)", "dsRNA": "DRSC06711", "infection score, replicate 1": 30.8}
{"target gene": "Nt5c (5' nucleotidase C)", "dsRNA": "DRSC27240", "infection score, replicate 1": 13.7}
{"target gene": "Gnpnat (Glucosamine-phosphate N-acetyltransferase)", "dsRNA": "DRSC15405", "infection score, replicate 1": 1.61}
{"target gene": "Mvk + CG33672 + spt4", "dsRNA": "DRSC05356", "infection score, replicate 1": 2.28}
{"target gene": "Mvk + CG33672 + spt4", "dsRNA": "DRSC06628", "infection score, replicate 1": 3.25}
{"target gene": "dgt2 (dim gamma-tubulin 2)", "dsRNA": "DRSC02548", "infection score, replicate 1": 4.24}
{"target gene": "dgt2 (dim gamma-tubulin 2)", "dsRNA": "DRSC29741", "infection score, replicate 1": 21.3}
{"target gene": "CG42327", "dsRNA": "DRSC14936", "infection score, replicate 1": 6.61}
{"target gene": "CG42327", "dsRNA": "DRSC14937", "infection score, replicate 1": 1.58}
{"target gene": "CG42327", "dsRNA": "DRSC23337", "infection score, replicate 1": 1.27}
{"target gene": "CG42327", "dsRNA": "DRSC28159", "infection score, replicate 1": 7.1}
{"target gene": "CG42327", "dsRNA": "DRSC28248", "infection score, replicate 1": 21.3}
{"target gene": "CG4619", "dsRNA": "DRSC02764", "infection score, replicate 1": 16}
{"target gene": "CG15059", "dsRNA": "DRSC19633", "infection score, replicate 1": 13.3}
{"target gene": "CG15059", "dsRNA": "DRSC28667", "infection score, replicate 1": 13.6}
{"target gene": "CG12920", "dsRNA": "DRSC06234", "infection score, replicate 1": 23.9}
{"target gene": "para (paralytic)", "dsRNA": "DRSC20360", "infection score, replicate 1": 23.2}

Part of the list above in another layout:
CG42327 [DRSC23337]
- infection score, replicate 1: 1.27

CG42327 [DRSC28159]
- infection score, replicate 1: 7.1

CG42327 [DRSC28248]
- infection score, replicate 1: 21.3
